This assay deals with Staphylococcus aureus strain SAU1018. As to the kind of experiment: mouse peritonitis infection model (survival, ED50). The class given is in vivo. The conditions noted are these: for ED50 (effective dose for survival of 50% of animals): intravenous injection, sodium salt in saline solution, S. aureus SAU1018 mouse infection.

Regarding `O=C1C=CN(c2c(F)cc(N3C[C@H](CN(c4ccon4)P(=O)(O)O)OC3=O)c(F)c2F)CC1`, the “ED50 (effective dose for survival of 50% of animals)” value is “about 10 mg/kg”.
In the case of `CCOC(=O)CCC(=O)OP(=O)(O)N(C[C@H]1CN(c2cc(F)c(N3C=CC(=O)CC3)c(F)c2F)C(=O)O1)c1ccon1`, the “ED50 (effective dose for survival of 50% of animals)” value is 10 mg/kg.
On to `CC(=O)OP(=O)(O)N(C[C@H]1CN(c2cc(F)c(N3C=CC(=O)CC3)c(F)c2F)C(=O)O1)c1ccon1`, for which the “ED50 (effective dose for survival of 50% of animals)” value amounted to 10 mg/kg. Besides, the ED50 entry (solution administered orally, sodium salt form, mouse S. aureus infection) was “about 8 mg/kg”.

For the origin of these results see US9382276B2, “Water-soluble O-carbonyl phosphoramidate prodrugs for therapeutic administration” (MicuRx Pharmaceuticals, Inc., priority 2014, dated 2016).
